# Test results: publication PMC6746850, “Identification and Molecular Characterization of Superoxide Dismutases Isolated From A Scuticociliate Parasite: Physiological Role in Oxidative Stress” (Scientific Reports, 2019)
# Sequences of proteins named here, by UniProt entry; tags and fusion partners are left off. Residues count along the entry.
# UniProt A0A481XSU7, 22-249 limits assumed: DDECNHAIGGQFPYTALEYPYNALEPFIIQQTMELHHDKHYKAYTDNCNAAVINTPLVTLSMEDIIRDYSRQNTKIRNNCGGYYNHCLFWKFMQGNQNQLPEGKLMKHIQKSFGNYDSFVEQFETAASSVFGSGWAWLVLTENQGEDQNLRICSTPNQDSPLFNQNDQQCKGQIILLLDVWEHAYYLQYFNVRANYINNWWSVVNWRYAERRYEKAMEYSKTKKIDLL
# Target: Pd-Fe-SOD (FSD) (Philasterides dicentrarchi, UniProt A0A481XSU7)
# Test: SOD activity staining (NBT) in native PAGE
# Type: biochemical
# Details: 100 μM inhibitor; anion-exchange fraction P2 (methods also describe 30 min treatment of live ciliates before lysis)
smiles,measurement,value
[N-]=[N+]=N,complete inhibition at 100 μM,both NaN3 and RESV produced complete inhibition of the activity of SOD enzymes
